The entries are a selection whose mix differs from that of the whole data set. Active and inactive are the calls of the source.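 The calls were made as follows: active = inhibition reaching at least a set limit at 20 µM in the primary screen (cut at about 59% in these data); inactive = the rest.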

This experiment has as its system glucose-6-phosphate dehydrogenase-6-phosphogluconolactonase (Plasmodium falciparum 3D7). Description: inhibition of malaria parasite G6PD (PfGluPho) – biochemical, fluorescence intensity, uHTS, primary screen (AID 504690).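 Also: 0% = DMSO wells with substrate and 100% = DMSO wells lacking glucose-6-phosphate.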 To be noted: PfGluPho enzyme, NADPH resazurin-diaphorase fluorescence; at 20 µM; active compounds read high.
Turning to `O=P(Nc1nccs1)(Oc1ccccc1)Oc1ccccc1`, the inhibition (commonly the relative decrease from the control value, in per cent) is inactive: -18.6%.

Consider `CS(=O)(=O)c1cc([N+](=O)[O-])c2no[n+]([O-])c2c1`, for which the inhibition is active: 114%.

Take `Nc1ccccc1[As](=O)(O)c1ccccc1`: the inhibition is inactive: -14.8%.

Regarding `O=C(O)COc1ccc([As](=O)(O)O)cc1[N+](=O)[O-]`, the inhibition was inactive: -1.63%.

For the compound `NC(=O)Nc1ccc([As](=O)(O)O)cc1`, the inhibition was inactive: -0.06%.

On to `N#CCCN(C(=O)COC(=O)C(O)(c1ccccc1)c1ccccc1)c1ccc(F)cc1`, for which the inhibition was inactive: -8.88%.

On to `CN(C(=O)Cc1ccccc1)[C@@H]1CC[C@]2(CCCO2)C[C@H]1N1CCCC1`, for which the inhibition was inactive: 3.91%.

On to `CCOP1(=S)c2c(C)nn(CCC#N)c2N=C(c2ccc(F)cc2)N1C` (stereo unspecified), for which the inhibition is inactive: -7.52%.

As to `CN(C)C(=O)c1cc([N+](=O)[O-])cc2c1-c1c(cc([N+](=O)[O-])cc1[N+](=O)[O-])C2=O`, the inhibition is active: 102%.

On to `O=[N+]([O-])c1ccc2c(c1)nnn2O`, for which the inhibition is inactive: -3.78%.

Turning to `CN(C(=O)Cc1ccc(Cl)c(Cl)c1)[C@H]1CC[C@@]2(CCCO2)C[C@@H]1N1CCCC1`, the inhibition is inactive: 13.7%.

In the case of `O=C(OC1CN2CCC1CC2)c1ccc(Cl)cc1` (stereo unspecified), the inhibition was inactive: -10.9%.

Consider `COc1cc(C(=O)NCC2(N3CCOCC3)CCCCC2)cc(Cl)c1OC(C)C`, for which the inhibition was inactive: 37.8%.

In the case of `O=[As](O)(O)c1cccnc1`, the inhibition was inactive: 2.13%.

As for `CS(=O)(=O)c1ccc(Cl)c(NC(=O)COC(=O)C(O)(c2ccccc2)c2ccccc2)c1`, the inhibition was inactive: 14%.

`O=[As](O)(c1cccc(O)c1)c1cccc(O)c1`: the inhibition was inactive: 0.19%.

As to `Cc1cccc(OCC(=O)OC2CN3CCC2CC3)c1` (stereo unspecified), the inhibition was inactive: -7.35%.

In the case of `Nc1cccc2c([As](=O)(O)O)cccc12`, the inhibition was inactive: 38.6%.

Take `Cc1ccc(NCCc2c([N+](=O)[O-])cc([N+](=O)[O-])cc2[N+](=O)[O-])cc1`: the inhibition was inactive: 25.9%.

With `CCCOP(=S)(Nc1nc(N)cc(=O)[nH]1)OCCC`, the inhibition is inactive: -3.55%.

Turning to `COc1cc(C2NCCC3(OCCO3)C2(C)C)cc(OC)c1OC` (stereo unspecified), the inhibition is inactive: -19.2%.

With `CCOP(=O)(Nc1cccc2ccccc12)OCC`, the inhibition is inactive: -0.72%.

In the case of `O=P1(Nc2nc3ccc(Cl)cc3s2)COc2ccccc2O1` (stereo unspecified), the inhibition was inactive: -8.18%.

`CCOc1ccc(C2=NCC(CBr)S2)cc1` (stereo unspecified): the inhibition was inactive: -0.24%.

For `CC(C)(C)C(=O)NC(Sc1ccccc1)C(Cl)(Cl)Cl` (stereo unspecified), the inhibition is inactive: 14.6%.

Turning to `CCc1cc(O)c([N+](=O)[O-])c(C)c1[N+](=O)[O-]`, the inhibition is inactive: 7.31%.

Turning to `Cc1ccccc1CN(C)C(=O)COC(=O)C(O)(c1ccccc1)c1ccccc1`, the inhibition is inactive: -13.9%.

As to `C[C@@H]1C=CCP(=O)(Oc2ccccc2)O1` (stereo partly specified), the inhibition is inactive: 1.6%.

As for `C[C@H]1OP(=O)(Oc2ccccc2)C[C@@H]2O[C@@H]21` (stereo partly specified), the inhibition was inactive: -8.1%.

Consider `N#C/C(=C\c1ccc(N(CCBr)CCBr)cc1)C(N)=O`, for which the inhibition was inactive: 27.6%.

In the case of `CC(=O)c1ccc(N2CC2c2ccncc2)cc1` (stereo unspecified), the inhibition is inactive: 3.16%.

Consider `COC(=O)C1(C)COP(=O)(NCc2ccccc2)OC1` (stereo unspecified), for which the inhibition was inactive: -13%.

Take `CC(=O)Nc1ccc([As](=O)(O)O)c(O)c1`: the inhibition was inactive: -18%.

Take `CC(=O)Nc1ccc(Oc2c([N+](=O)[O-])cc([N+](=O)[O-])cc2[N+](=O)[O-])cc1`: the inhibition was inactive: 6.46%.

For the compound `c1ccc(-c2nn[nH]n2)c(-c2nn[nH]n2)c1`, the inhibition was inactive: -17.6%.

On to `Cc1ccc(NP(=O)(Oc2cccc(C)c2)Oc2cccc(C)c2)nc1`, for which the inhibition was inactive: -1.82%.

Regarding `CCNC(=S)/N=C(\N)N[N+](=O)[O-]`, the inhibition was inactive: -0.74%.

For `O=C(NC1CCS(=O)(=O)C1)NP(=S)(Oc1ccccc1)Oc1ccccc1` (stereo unspecified), the inhibition is inactive: 8.97%.

Regarding `O=P1(N(CCCl)CCCl)OCCC2CCCCN21` (stereo unspecified), the inhibition is inactive: -10.4%.

`O=C(OC1CN2CCC1CC2)c1ccccc1` (stereo unspecified): the inhibition was inactive: -12%.

As to `CCC(=O)N1C2C3N(C(=O)CC)C1C1N(C(=O)CC)C(C(N1C(=O)CC)N3C(=O)CC)N2C(=O)CC`, the inhibition is inactive: 0.31%.

For the compound `COC(=O)c1cc2c(s1)N=C(c1ccccc1)N(C)P2(=O)N1CCOCC1` (stereo unspecified), the inhibition was inactive: -9.06%.

`Cc1ccc(OP(=O)(Nc2ccccn2)Oc2ccc(C)cc2)cc1`: the inhibition is inactive: -1.51%.

For `CC(=O)NC(SC(=S)N(CC(C)C)CC(C)C)C(Cl)(Cl)Cl` (stereo unspecified), the inhibition is inactive: 5.41%.

As for `Cc1ccccc1OP(=O)(Nc1ccccn1)Oc1ccccc1C`, the inhibition is inactive: 6.91%.

Regarding `CC(NC(=O)COC(=O)C(O)(c1ccccc1)c1ccccc1)c1ccccc1` (stereo unspecified), the inhibition was inactive: 5.77%.

As to `CN(C)C(=O)Oc1noc2ccccc12`, the inhibition was inactive: 8.97%.

In the case of `O=c1c2cc([N+](=O)[O-])ccc2[nH]c2c([N+](=O)[O-])cc([N+](=O)[O-])cc12`, the inhibition was inactive: 30.1%.

Take `O=P(Nc1ccccn1)(c1ccc(Br)cc1)c1ccc(Br)cc1`: the inhibition is inactive: -22.4%.

In the case of `CN(C)C1(CNC(=O)c2ccc(Cl)c(S(N)(=O)=O)c2)CCCCC1`, the inhibition was inactive: -1.91%.

As to `COc1ccc(N)c([N+](=O)[O-])c1[N+](=O)[O-]`, the inhibition is inactive: 18.7%.

For `O=P(Nc1nc2ccccc2s1)(c1ccccc1)c1ccccc1`, the inhibition is inactive: -1.16%.

Turning to `C[C@H]1OP(=O)(Oc2ccccc2)[C@H](O)[C@H](O)[C@H]1N=[N+]=[N-]` (stereo partly specified), the inhibition is inactive: 1.32%.

Turning to `O=[As](O)(c1ccccc1)c1ccc(O)cc1`, the inhibition was inactive: -9.19%.

Consider `O=[N+]([O-])c1ccc(O)c(/C=N/Nc2ccc([N+](=O)[O-])cc2[N+](=O)[O-])c1`, for which the inhibition is inactive: -2.6%.

For `O=[N+]([O-])c1ncn(CCn2cnc([N+](=O)[O-])n2)n1`, the inhibition is inactive: -0.13%.

As to `CC(=O)NC(SC(=S)N(C)C)C(Cl)(Cl)Cl` (stereo unspecified), the inhibition is inactive: -2.89%.

`O=C(OC1CN2CCC1CC2)c1cccc(Cl)c1` (stereo unspecified): the inhibition was inactive: -4.48%.

In the case of `Nc1ccc([As](=O)(O)c2ccc([N+](=O)[O-])cc2)cc1`, the inhibition was inactive: -0.08%.

On to `C(Cc1nn[nH]n1)Cc1nn[nH]n1`, for which the inhibition is inactive: -3.61%.

Take `CC(C)C(=O)NC(Sc1ccccc1)C(Cl)(Cl)Cl` (stereo unspecified): the inhibition was inactive: -20.9%.

On to `O=P(Nc1nccs1)(c1ccccc1)c1ccccc1`, for which the inhibition is inactive: 2.83%.

For `c1nnnn1CCn1cnnn1`, the inhibition is inactive: -1.3%.

As to `COc1ccc(C2=NCC(CBr)S2)cc1` (stereo unspecified), the inhibition was inactive: 51%.

For the compound `Cc1ccc(NP(=O)(Oc2ccccc2)Oc2ccccc2)nc1`, the inhibition is inactive: 3.41%.

With `CCc1nc2c(n1)c1c(non1O)c1c2no[n+]1[O-]`, the inhibition is inactive: -8.69%.

With `O=[N+]([O-])c1cc([N+](=O)[O-])c(CCNc2ccccc2)c([N+](=O)[O-])c1`, the inhibition was inactive: 36.8%.

For the compound `O=[N+]([O-])c1cccc2n[nH]nc12`, the inhibition was inactive: -8.27%.

`CC(=O)N1C2C3N(C(C)=O)C1C1N(C(C)=O)C(C(N1C(C)=O)N3C(C)=O)N2C(C)=O`: the inhibition is inactive: 1.52%.

`CCN(/C(=N/P(=O)(N1CCOCC1)N1CCOCC1)N1CCOCC1)c1ccc(OC)cc1`: the inhibition was inactive: -6.94%.

On to `Nc1ccc([As](=O)(O)c2ccc(N)cc2)cc1`, for which the inhibition was inactive: 4.51%.

On to `C[N+]1=C2C=CC=CC=C2SC12C([N+](=O)[O-])=CC([N+](=O)[O-])=C[C-]2[N+](=O)[O-]` (stereo unspecified), for which the inhibition is active: 67.4%.

With `c1cc(-c2nn[nH]n2)ccc1-c1nn[nH]n1`, the inhibition was inactive: -51.2%.

Consider `CC1CCN(C(=O)Oc2c(Cl)cc(Cl)c3cccnc23)CC1`, for which the inhibition is inactive: 0.01%.

Regarding `CC(C)=N/N=C(\N)N[N+](=O)[O-]`, the inhibition is inactive: 6.7%.

With `CC(C)c1nc(Nc2ccccc2)n(P(=O)(N(C)C)N(C)C)n1`, the inhibition was inactive: -15.5%.

As to `CN(C)C(=O)OCCc1n(C)cc[n+]1C`, the inhibition was inactive: -1.08%.

For the compound `O=P1(N(CCCl)CCCl)OCCCS1` (stereo unspecified), the inhibition is inactive: 1.7%.

Take `O=C(Nc1cc([As](=O)(O)O)ccc1O)c1ccccc1`: the inhibition is inactive: -11%.

Consider `O=[N+]([O-])c1ncn(CCn2ncnc2[N+](=O)[O-])n1`, for which the inhibition is inactive: 5.28%.

On to `CC(C)(C)C(=O)NC(Sc1ccncn1)C(Cl)(Cl)Cl` (stereo unspecified), for which the inhibition is inactive: 8.21%.

Take `O=C(O)CNc1ccc([As](=O)(O)O)cc1`: the inhibition is inactive: -3.82%.

Turning to `O=[N+]([O-])c1cccc(NC2=NCC(CBr)S2)c1` (stereo unspecified), the inhibition is inactive: 7.8%.

With `COC(=O)C1(C)COP(=O)(Nc2ccccc2)OC1` (stereo unspecified), the inhibition is inactive: -3.64%.

As for `CN(C)P(=O)(N(C)C)n1c(Nc2ccccc2)nnc1-c1ccccc1`, the inhibition was inactive: 19.4%.

Turning to `O=P(Nc1nc2ccc(Cl)cc2s1)(c1ccccc1)c1ccccc1`, the inhibition is inactive: -10.6%.

Turning to `O=C(O)c1ccccc1[As](=O)(O)O`, the inhibition is inactive: -16.9%.

As to `CC(=O)Nc1ccc([As](=O)(O)O)cc1`, the inhibition was inactive: -12.5%.

On to `CCCC1OP(N)(=O)OCC1CC` (stereo unspecified), for which the inhibition is inactive: -20.2%.

As to `CCOP(=O)(Nc1ccccc1)OCC`, the inhibition was inactive: -20.9%.

As for `Cc1cc(SC(NC(=O)c2ccc(F)cc2)C(Cl)(Cl)Cl)ncn1` (stereo unspecified), the inhibition was inactive: 31%.

Regarding `Cc1ccc(NP(=O)(Oc2ccccc2F)Oc2ccccc2F)nc1`, the inhibition is inactive: 6.23%.

For `CN(C(=O)Cc1ccc(Cl)c(Cl)c1)[C@H]1CCCC[C@@H]1N1CCCC1`, the inhibition was inactive: 8.52%.

For the compound `Nc1cccc2ccc([As](=O)(O)O)cc12`, the inhibition was inactive: 17.5%.

For the compound `CCN(N=Nc1nonc1N)c1nonc1N`, the inhibition was inactive: -8.56%.

Consider `CN(C(=O)Cc1ccc(Cl)c(Cl)c1)[C@H]1CCCC[C@H]1N1CCCC1`, for which the inhibition was inactive: -5%.

For the compound `Cc1ccc(N/C(=N/P(=O)(N2CCOCC2)N2CCOCC2)N2CCOCC2)cc1`, the inhibition is inactive: -20.2%.

Consider `NC(=O)c1cc([N+](=O)[O-])cc([N+](=O)[O-])c1N`, for which the inhibition is inactive: 13.1%.

As for `Clc1ccc(Cl)c(NC2=NCC(CBr)S2)c1` (stereo unspecified), the inhibition was inactive: 18.5%.

On to `CN1CCCC(OC(=O)C(c2ccccc2)c2ccccc2)C1` (stereo unspecified), for which the inhibition is inactive: -5.67%.

`COc1ccccc1OP(=O)(Nc1ccc(C)cn1)Oc1ccccc1OC`: the inhibition is inactive: 1.43%.

In the case of `Cc1ccc(OP(=O)(Nc2nccs2)Oc2ccc(C)cc2)cc1`, the inhibition is inactive: 3.8%.

Turning to `Oc1ccccc1CNc1ccccn1`, the inhibition was inactive: -16.4%.

`O=C(NC(Sc1ccncn1)C(Cl)(Cl)Cl)c1ccccc1` (stereo unspecified): the inhibition is inactive: 7.24%.

For the compound `CC(C)CC(=O)NC(Sc1ccc(Cl)cc1)C(Cl)(Cl)Cl` (stereo unspecified), the inhibition is inactive: 7.95%.

Regarding `Nc1cc(N)c2nonc2c1[N+](=O)[O-]`, the inhibition was inactive: 8.18%.

The values are drawn from PubChem BioAssay AID504690 (Sanford-Burnham Center for Chemical Genomics, 2011).
